Compound potency records, mixed from different reports. Data source: NIAID ChemDB in PubChem.

Common to all: tests in culture

ECn: concentration that inhibits the pathogen or its effect by n%.

compound,cells,method,strain,agent,tested at,changes,read-out,result
CCCN1CCN(c2cc(=O)c3nc4c(oc3c2)c2c(=O)c3c(O)c(C)c5c(c34)=C(O)[C@@](C)(O/C=C/[C@H](OC)[C@@H](C)[C@@H](OC(C)=O)[C@H](C)[C@H](O)[C@H](C)[C@@H](O)[C@@H](C)/C=C/C=C(/C)C(=O)N2)O5)CC1,,,20 strains (methicillin-susceptible),Staphylococcus aureus,,,MIC90,0.0078 µg/mL
Nc1nc2c(ncn2CCOCP(=O)(O)O)c(=O)[nH]1,,cytopathic effect,Halonen,Measles virus,,,EC50,0.07 µg/mL
CCCCCCCCCCCCCCCCCCCCCCOCC(C)(COCCCCCCCCCCCCCCCCCCCCCC)CO[C@]1(C(=O)O)C[C@H](OS(=O)(=O)O)[C@@H](NC(C)=O)[C@H]([C@H](OS(=O)(=O)O)[C@@H](COS(=O)(=O)O)OS(=O)(=O)O)O1,HEP-2,plaque count,Y751,Respiratory syncytial virus,,,EC50,0.57 µM
C#CC[C@@H](C(=O)N[C@H](/C=C/C(=O)OCC)C[C@@H]1CCNC1=O)n1cccc(NC(=O)c2cc(C)on2)c1=O,H1-HELA,cytopathic effect / XTT,Serotype 3,Rhinovirus,0.063 µM,,inhibition,90%
COc1ccc2cc3[n+](cc2c1OC)CCc1cc2c(cc1-3)OCO2,RK-13,,,Vittaforma corneae,0.01 µg/mL,,inhibition,20.3%
Nc1ccnc2c1ncn2[C@H]1C=C[C@@H](OCP(=O)(O)O)O1,,virus yield,TAK (TYPE 41),Adenovirus,,,EC90,1 µg/mL
O=C1C=CN([C@@H]2O[C@H](CO)[C@@H](O)[C@H]2O)C(=O)C1,VERO,cytopathic effect,NEW YORK,West Nile virus,,,EC50,>593 µg/mL
Nc1nc2c(ncn2COCOCP(=O)(O)O)c(=O)[nH]1,,cytopathic effect,14702 (TYPE 3),Parainfluenza virus,,,EC50,100 µg/mL
CO[C@H]1/C=C/O[C@@]2(C)Oc3c(C)c(O)c4c(O)c(c(/C=N/N5CCN(C)CC5)c(O)c4c3C2=O)NC(=O)/C(C)=C\C=C\[C@H](C)[C@H](O)[C@@H](C)[C@@H](O)[C@@H](C)[C@H](OC(C)=O)[C@@H]1C,,,20 strains (methicillin-resistant),Staphylococcus aureus,,,MIC50,0.0078 µg/mL
CCC(C)n1ncn(-c2ccc(N3CCN(c4ccc(OC[C@H]5CO[C@](Cn6cncn6)(c6ccc(Cl)cc6Cl)O5)cc4)CC3)cc2)c1=O,,,Isogenic isolate 7 MDR1 (25X),Candida albicans,,,MIC,0.03 µg/mL
CCO/N=C/c1ccc(OCCC2CCN(c3ccc(C)nn3)CC2)cc1,KB,neutral red,16/60 (ICAM-1 receptor group 4),Rhinovirus,,,EC50,0.022 µM
COc1cc(Cc2cnc(N)nc2N)cc(OC)c1OC,,,Isolate 8756,Mycobacterium ulcerans,,,MBC,>32 µg/mL
COc1cc2c(c(OC)c1OC)-c1ccc(OC)c(=O)cc1[C@@H](NC(C)=O)CC2,RK-13,,,Encephalitozoon intestinalis,1 µg/mL,,inhibition,84.7%
NC(=O)c1csc([C@@H]2O[C@H](COP(=O)(O)CP(=O)(O)OC[C@H]3O[C@@H](n4cnc5c(N)ncnc54)[C@H](O)[C@@H]3O)[C@@H](O)[C@H]2O)n1,VERO,cytopathic effect,NEW YORK,West Nile virus,,,EC50,125 µg/mL
CCOC(=O)Nc1cc2c(cn1)N=C(c1ccccc1)[C@H](C)N2,RK-13,,,Encephalitozoon intestinalis,0.01 µg/mL,,inhibition,71.9%
COc1cc(Cc2cnc(N)nc2N)cc(OC)c1Br,,,ATCC 35840,Mycobacterium ulcerans,,,MIC,4 µg/mL
CN(C)c1cc(NC(=O)CNC(C)(C)C)c(O)c2c1C[C@H]1C[C@H]3[C@H](N(C)C)C(=O)C(C(N)=O)=C(O)[C@@]3(O)C(=O)C1=C2O,,broth dilution,V150,Mycobacterium massiliense,,,MIC,1 µg/mL
CC(C)(CO)C(=O)SCCOP(=O)(NCc1ccccc1)OC[C@H]1O[C@@H](n2cnc3c(=O)[nH]c(N)nc32)[C@](C)(O)[C@@H]1O,Replicon cells,replicon,GT1a,Hepatitis C virus,,Y93H,fold resistance,1.05
CC1(C)[C@@H](O[C@H]2O[C@H](C(=O)O)[C@@H](O)[C@H](O)[C@H]2O[C@@H]2O[C@H](C(=O)O)[C@@H](O)[C@H](O)[C@H]2O)CC[C@]2(C)[C@H]3C(=O)C=C4[C@@H]5C[C@@](C)(C(=O)O)CC[C@]5(C)CC[C@@]4(C)[C@]3(C)CC[C@@H]12,VERO,virus yield,E101,West Nile virus,,,EC90,625 µg/mL
CCOC(=O)Nc1cc2c(c(N)n1)N=C(c1ccc(N=[N+]=[N-])cc1)CO2,RK-13,,,Encephalitozoon intestinalis,1 µg/mL,,inhibition,85.5%
Nc1ccn([C@@H]2C[C@H](CO)[C@@H](O)[C@H]2O)c(=O)n1,BALB/3T3,cytopathic effect,,Vesicular stomatitis virus,,,EC50,5 µg/mL
CC(=O)OC[C@H]1O[C@@H](n2ncc(=O)[nH]c2=O)[C@H](OC(C)=O)[C@@H]1OC(C)=O,MA-104,cytopathic effect / visual reading,NEW YORK,West Nile virus,,,EC50,0.5 µg/mL
CC[C@H]1OC(=O)[C@H](C)[C@@H](O[C@H]2C[C@@](C)(OC)[C@@H](O)[C@H](C)O2)[C@H](C)[C@@H](O[C@@H]2O[C@H](C)C[C@H](N(C)C)[C@H]2O)[C@](C)(OC)C[C@@H](C)C(=O)[C@H](C)[C@@H](O)[C@]1(C)O,,broth dilution,X14,Mycobacterium massiliense,,,MIC,8 µg/mL
COc1cc2oc(=O)ccc2cc1CC(O)C(C)(C)O,,,ESBL-3894,Klebsiella pneumoniae,,,MIC,>250 µg/mL
NC(=O)c1[nH]nc([C@@H]2O[C@H](CO)[C@@H](O)[C@H]2O)c1O,MA-104,cytopathic effect / visual reading,NEW YORK,West Nile virus,,,EC50,0.5 µg/mL
COC(=O)Nc1cc(N)c2c(c1)NC(=O)C(c1ccccc1)N2,RK-13,,,Encephalitozoon intestinalis,1 µg/mL,,inhibition,74.1%
NC12CC3CC(CC(C3)C1)C2,MDCK,plaque count,Influenza A/Ibaraki/1/90 (H3N2),Influenza A virus,,,EC50,0.47 µg/mL
CC(=O)Oc1ccccc1C(=O)Nc1ncc([N+](=O)[O-])s1,RK-13,,,Encephalitozoon intestinalis,0.01 µg/mL,,inhibition,33.7%
COc1c(C)c2c(c(O)c1C/C=C(\C)CCC(=O)O)C(=O)OC2,VERO,cytopathic effect / visual reading,NEW YORK,West Nile virus,,,EC50,2.7 µg/mL
C[C@H](Cc1ccc(O)c(O)c1)[C@@H](C)Cc1ccc(O)c(O)c1,,broth dilution,CCC 131-2000,Candida lusitaniae,,,MIC100,500 µg/mL

A number after MIC or MFC names an inhibition level or a share of isolates. An empty or dashed field is not shown. Inhibition is in % at the dose shown (toxicity tests: loss of growth or viability). Lines come from different laboratories, so protocols vary. Fold resistance has wild type as its base.